Measurements from PubChem BioAssay AID2302 (GlaxoSmithKline (GSK), 2010).
This is a selection; strong and weak results do not stand in their true shares. Activity calls are given as the source filed them.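 Rule for the calls: active = growth inhibition above 50% at the single 2 µM test dose, taken to imply half-maximal potency below 2 µM; inactive = the rest.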

test: antimalarial activity against Dd2 strain (AID 2302);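 note: 0% = DMSO untreated growth and 100% = chloroquine plus artemisinin killed control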; conditions: P. falciparum Dd2 in RBCs, LDH growth readout, 72 h; at 2 µM; stronger effect = higher value

SMILES	growth inhibition
CC(C)(C)c1cc2cc(N(C(=O)c3ccc(C(F)(F)F)cc3)C3CCN(Cc4ccccc4)CC3)ccc2[nH]1	inactive: 22%
Cn1c(=O)n(C2CCN(CCCC(c3ccc(F)cc3)c3ccc(F)cc3)CC2)c2ccccc21	inactive: 2%
